# Legend:
# [1] = target: T1, Human immunodeficiency virus type 1 integrase (Human immunodeficiency virus 1, UniProt Q7ZJM1); assay: Inhibitory concentration of compound against strand transfer of HIV-1 integrase in experiment 2
# [2] = target: T1, Human immunodeficiency virus type 1 integrase; assay: Inhibitory concentration of compound against 3'-processing of HIV-1 integrase in experiment 1
# [3] = target: T1, Human immunodeficiency virus type 1 integrase; assay: Inhibitory concentration of compound against 3'-processing of HIV-1 integrase in experiment 2
# [4] = target: T1, Human immunodeficiency virus type 1 integrase; assay: Inhibitory concentration of compound against strand transfer of HIV-1 integrase in experiment 1
structure (smiles),measurement,setting,value
O=C(O)c1c([N+](=O)[O-])cc([N+](=O)[O-])c(-c2c([N+](=O)[O-])cc([N+](=O)[O-])c(C(=O)O)c2[N+](=O)[O-])c1[N+](=O)[O-],IC50,[1],43.3 µM
same,IC50,[2],18.2 µM
same,IC50,[3],46.1 µM
same,IC50,[4],15 µM

# — ChEMBL document CHEMBL1129975, “Depsides and depsidones as inhibitors of HIV-1 integrase: discovery of novel inhibitors through 3D database searching” (J Med Chem, 1997)
